In article PMC8172068 (PLoS ONE, 2021):

Target: Acinetobacter baumannii rAcpA (Acinetobacter baumannii, UniProt A0ABX6CG12)

Substance: Cysteamine S-Phosphate
- inhibition (sensitivity) (PNPP hydrolysis, max. conc. tested 2.0 mM): ~ 19%
- Percent Control (activity in presence/absence of compound x100, at max. conc. tested (Tween 20 3.2 mM; cysteamine S-phosphate 2.0 mM; okadaic acid 0.0001 mM)): 81%
